In patent US10029984B2, “Mono- or di-substituted indole derivatives as dengue viral replication inhibitors” (Janssen Pharmaceuticals, Inc., priority 2015, dated 2018):

Test system: DENV-2 16681 strain
Assay: DENV-2 antiviral assay (eGFP-labeled virus in Vero cells)
Type: cell-based, Dengue virus
Details: SI=CC50/EC50, DENV-2 antiviral assay
Procedure: The antiviral activity of all the compounds of the invention was tested against DENV-2 16681 strain which was labeled with enhanced green fluorescent protein (eGPF; Table 1). The culture medium consists of minimal essential medium supplemented with 2% of heat-inactivated fetal calf serum, 0.04% gentamycin (50 mg/mL) and 2 mM of L-glutamine. Vero cells, obtained from ECACC, were suspended in culture medium and 25 μL was added to 384-well plates (2500 cells/well), which already contain the antiviral compounds. Typically, these plates contain a 4-fold serial dilution of 9 dilution steps of the test compound at 200 times the final concentration in 100% DMSO (200 nL). In addition, each compound concentration is tested in quadruplicate (final concentration range: 25 μM-0.00038 μM). Finally, each plate contains wells which are assigned as virus controls (containing cells and virus in the absence of compound), cell controls (containing cells in the absence of virus and compound) and medium controls (containing medium in the absence of cells, virus and compounds). To the wells assigned as medium control, 25 μL of culture medium was added instead of Vero cells. Once the cells were added to the plates, the plates were incubated for 30 minutes at room temperature to allow the cells to distribute evenly within the wells. Next, the plates were incubated in a fully humidified incubator (37° C., 5% CO2) until the next day. Then, DENV-2 strain 16681, labeled with eGFP, was added at a multiplicity of infection (MOI) of 0.5. Therefore, 15 μL of virus suspension was added to all the wells containing test compound and to the wells assigned as virus control. In parallel, 15 μL of culture medium was added to the medium and cell controls. Next, the plates were incubated for 3 days in a fully humidified incubator (37° C., 5% CO2). At the day of the read out, the eGFP fluorescence was measured using an automated fluorescence microscope at 488 nm (blue laser). Using an in-house LIMS system, inhibition dose response curves for each compound were calculated and the half maximal effective concentration (EC50) was determined. Therefore, the percent inhibition (I) for every test concentration is calculated using the following formula: I=100*(ST−SCC)/(SVC−SCC); ST, SCC and SVC are the amount of eGFP signal in the test compound, cell control and virus control wells, respectively. The EC50 represents the concentration of a compound at which the virus replication is inhibited with 50%, as measured by a 50% reduction of the eGFP fluorescent intensity compared to the virus control. The EC50 is calculated using linear interpolation.

Row | SMILES | SI | also measured
1 | COc1cc(NC(C(=O)c2c[nH]c3cc(OC)c(F)cc23)c2ccc(F)cc2OC)cc(S(C)(=O)=O)c1 (racemic) [Compound 11, 2-(4-fluoro-2-methoxyphenyl)-1-(5-fluoro-6-methoxy-1H-indol-3-yl)-2-((3-methoxy-5-(methylsulfonyl)phenyl)amino)ethanone] | 4058 | –
2 | COc1cc(NC(C(=O)c2c[nH]c3cc(OC)c(F)cc23)c2ccc(F)cc2OC)cc(S(C)(=O)=O)c1 (single isomer, unassigned) [Enantiomer 11B, 2-(4-fluoro-2-methoxyphenyl)-1-(5-fluoro-6-methoxy-1H-indol-3-yl)-2-((3-methoxy-5-(methylsulfonyl)phenyl)amino)ethanone] | – | SI (listed as 11B): >1617
3 | COc1cc(NC(C(=O)c2c[nH]c3cc(OC)ccc23)c2ccc(F)cc2OC)cc(S(C)(=O)=O)c1 (single isomer, unassigned) [Enantiomer 5A, 2-(4-fluoro-2-methoxyphenyl)-1-(6-methoxy-1H-indol-3-yl)-2-((3-methoxy-5-(methylsulfonyl)phenyl)amino)ethanone] | – | SI (listed as 5A): 530
4 | COc1cc(NC(C(=O)c2c[nH]c3cc(C)c(F)cc23)c2ccc(F)cc2OC)cc(S(C)(=O)=O)c1 (racemic) [Compound 9, 2-(4-fluoro-2-methoxyphenyl)-1-(5-fluoro-6-methyl-1H-indol-3-yl)-2-((3-methoxy-5-(methylsulfonyl)phenyl)amino)ethanone] | 5457 | –
5 | COc1cc(NC(C(=O)c2c[nH]c3c(F)c(F)ccc23)c2ccc(F)cc2OC)cc(S(C)(=O)=O)c1 (racemic) [Compound 13, 1-(6,7-difluoro-1H-indol-3-yl)-2-(4-fluoro-2-methoxyphenyl)-2-((3-methoxy-5-(methylsulfonyl)phenyl)amino)ethanone] | 5298 | –
6 | COc1cc(NC(C(=O)c2c[nH]c3cc(F)c(C)cc23)c2ccc(F)cc2OC)cc(S(C)(=O)=O)c1 (racemic) [Compound 14, 2-(4-fluoro-2-methoxyphenyl)-1-(6-fluoro-5-methyl-1H-indol-3-yl)-2-((3-methoxy-5-(methylsulfonyl)phenyl)amino)ethanone] | 3360 | –
7 | COc1cc(NC(C(=O)c2c[nH]c3ccc(C)cc23)c2ccc(F)cc2OC)cc(S(C)(=O)=O)c1 (racemic) [Compound 15, 2-(4-fluoro-2-methoxyphenyl)-2-((3-methoxy-5-(methylsulfonyl)phenyl)amino)-1-(5-methyl-1H-indol-3-yl)ethanone] | 5240 | –
8 | COc1cc(NC(C(=O)c2c[nH]c3c(F)c(F)ccc23)c2ccc(F)cc2OC)cc(S(C)(=O)=O)c1 (single isomer, unassigned) [Enantiomer 13A, 1-(6,7-difluoro-1H-indol-3-yl)-2-(4-fluoro-2-methoxyphenyl)-2-((3-methoxy-5-(methylsulfonyl)phenyl)amino)ethanone] | – | SI (listed as 13A): 484
9 | COc1cc(NC(C(=O)c2c[nH]c3cc(OC)c(Cl)cc23)c2ccc(F)cc2OC)cc(S(C)(=O)=O)c1 (single isomer, unassigned) [Enantiomer 16B, 1-(5-chloro-6-methoxy-1H-indol-3-yl)-2-(4-fluoro-2-methoxyphenyl)-2-((3-methoxy-5-(methylsulfonyl)phenyl)amino)ethanone] | – | SI (listed as 16B): 1692
10 | COc1cc(NC(C(=O)c2c[nH]c3ccc(C)cc23)c2ccc(F)cc2OC)cc(S(C)(=O)=O)c1 (single isomer, unassigned) [Enantiomer 15B, 2-(4-fluoro-2-methoxyphenyl)-2-((3-methoxy-5-(methylsulfonyl)phenyl)amino)-1-(5-methyl-1H-indol-3-yl)ethanone] | – | SI (listed as 15B): 196
11 | COc1cc(NC(C(=O)c2c[nH]c3cc(F)ccc23)c2ccc(F)cc2OC)cc(S(C)(=O)=O)c1 (racemic) [Compound 1, 1-(6-fluoro-1H-indol-3-yl)-2-(4-fluoro-2-methoxyphenyl)-2-((3-methoxy-5-(methylsulfonyl)phenyl)amino)ethanone] | 4879 | –
